Compound potency records, mixed from different reports. Data source: NIAID ChemDB in PubChem.

All rows: growth or infection tests; organism: Hepatitis C virus; endpoint: inhibition

Percent inhibition refers to the dose given; in toxicity tests it is the harm to the cells. Rows are shuffled and stem from different studies. a–b is a range or a potency band. Blank or dashed fields: not listed here.

structure	dose	strain or isolate	cells	method	value
CCOc1ccc(CN2CCC(C(=O)Nc3ccccc3-c3cccc(OC)c3)CC2)cc1	15 µM	JFH-1	Huh7	PCR	<40%
COc1cc(Cc2cnc(/N=C3\C(=O)N(CN4CCN(Cc5ccccc5)CC4)c4ccc(F)cc43)nc2N)cc(OC)c1OC	50 µg/mL	-	Huh7	-	97%
O=C1CSC(=Nc2nnc(-c3cccc(F)c3)s2)N1	50 µM	GT1b	Huh7	luciferase	25%
O=c1[nH]cnc2c1cnn2Cc1ccccc1	50 µM	GT2a	Huh7.5	luciferase / reporter gene	70%
CCN(CC)CN1C(=O)/C(=N\c2ncc(Cc3cc(OC)c(OC)c(OC)c3)c(N)n2)c2cc(Br)ccc21	50 µg/mL	-	Huh7	replicon	24%
COC(=O)/C=C1\S/C(=N/N=C/c2cccc(Br)c2)NC1=O	9.6 µM	1b Con1 (replicon)	Huh 5-2	luciferase / luminescence	71.8%
O=C1CSC(=Nc2nnc(-c3cccnc3)s2)N1	50 µM	GT1b	Huh7	luciferase	0%
CCC(NC(=O)[C@@H]1[C@H]2CC=C[C@H]2CN1C(=O)[C@@H](NC(=O)[C@@H](NC(=O)c1cnccn1)C(C)C)C(C)C)C(=O)C(=O)N[C@@H](Cc1ccccc1)C(=O)O	25 µM	-	-	-	0%
O=c1[nH]cnc2c1ncn2[C@@H]1C2C[C@@]2(CO)C(O)C1(O)CO	100 µM	-	Huh7	replicon	0%
COC(=O)/C=C1\S/C(=N/N=C/c2ccc(N(C)C)cc2)NC1=O	41.6 µM	1b Con1 (replicon)	Huh 5-2	luciferase / luminescence	78.8%
COc1cc(/C=C/C(=O)CC(=O)/C=C/c2ccc(O)c(OC)c2)ccc1O	5 µM	-	Huh7/Rep-Feo cells	luciferase / reporter gene	0–20%
Oc1cc(O)c2c(c1)O[C@H](c1cc(O)c(O)c(O)c1)[C@H](O)C2	50 µM	1a	-	luciferase	80%
COc1cc(Cc2cnc(/N=C3\C(=O)N(CN4CCN(c5ccc(Cl)cc5)CC4)c4ccc(C)cc43)nc2N)cc(OC)c1OC	50 µg/mL	-	Huh7	-	90%
COC(=O)/C=C1\S/C(=N/N=C/c2c(F)cccc2Cl)NC1=O	20.9 µM	1b Con1 (replicon)	Huh 5-2	luciferase / luminescence	77%
C=Cc1cn([C@@H]2C=C(CO)[C@@H](O)[C@H]2O)c2ncnc(N)c12	20 µM	-	-	replicon	19.2%
Nc1ccn([C@@H]2O[C@H](CO)[C@@H](O)[C@H]2F)c(=O)n1	5 µM	-	Huh7	replicon	90%
O=C(N[C@@H](C(=O)N1CCC[C@H]1C(=O)Nc1nc(-c2ccccc2)cs1)c1ccccc1)C1CC1	0.0564 µM	genotype 1b	Con-1	luciferase	90%
O=C(N[C@@H](C(=O)N1CCC[C@H]1c1ncc(-c2ccc(-c3ccc(-c4cnc([C@@H]5CCCN5C(=O)[C@H](NC(=O)C5CC5)c5ccccc5)s4)cc3)cc2)s1)c1ccccc1)C1CC1	0.0004647 µM	genotype 2a JFH1	Huh7.5	luciferase	90%
C[C@@H]1[C@H](n2ccc(N)nc2=O)O[C@@](CO)(N=[N+]=[N-])[C@H]1O	7.85 µM	-	Huh7	replicon / PCR	90%
CCN(CC)CN1C(=O)/C(=N\c2ncc(Cc3cc(OC)c(OC)c(OC)c3)c(N)n2)c2cc(F)ccc21	50 µg/mL	-	Huh7	-	82%
O=C1NC(=Nc2nnc(-c3cccc(F)c3)s2)SC1=Cc1c(Cl)cccc1Cl	50 µM	GT1b	Huh7	luciferase	77%
Cc1ccc2nc(Nc3cccc([N+](=O)[O-])c3)sc2c1	20 µM	-	Huh7	luciferase	76%
O=C1NC(=Nc2nnc(-c3ccccc3F)s2)SC1=Cc1c(Cl)cccc1Cl	50 µM	GT1b	Huh7	luciferase	97%
CCCCN(CCCC)CN1C(=O)/C(=N\c2ncc(Cc3cc(OC)c(OC)c(OC)c3)c(N)n2)c2cc(Br)ccc21	50 µg/mL	-	Huh7	replicon	0%
CC1(C)CC[C@]2(C(=O)O)[C@H](O)C[C@]3(C)C(=CC[C@@H]4[C@@]5(C)CC[C@H](O)C(C)(C)[C@@H]5CC[C@]43C)[C@@H]2C1	5 µM	-	Huh7	luciferase / entry	77.7%
COc1cc(Cc2cnc(/N=C3\C(=O)N(CN(C)C)c4ccc(F)cc43)nc2N)cc(OC)c1OC	50 µg/mL	-	Huh7	-	100%
O=C(Nc1cccc(-c2cccc(Cl)c2)c1)C1CCN(Cc2cccc(O)c2)CC1	15 µM	JFH-1	Huh7	PCR	<40%
COc1cc(Cc2cnc(/N=C3\C(=O)N(CN4CCN(c5ccccc5)CC4)c4ccc(F)cc43)nc2N)cc(OC)c1OC	50 µg/mL	-	Huh7	-	98%
O=C1CSC(=Nc2nnc(-c3c(Cl)cccc3Cl)s2)N1	50 µM	GT1b	Huh7	luciferase	40%
CC(C)n1cc(CN2CCC(C(=O)Nc3cccc(-c4cccc(Cl)c4)c3)CC2)cn1	15 µM	JFH-1	Huh7	PCR	≥40%
CCn1cc(C(=O)O)c(=O)c2cc(F)c(N3CCN(CN4C(=O)/C(=N\c5ncc(Cc6cc(OC)c(OC)c(OC)c6)c(N)n5)c5cc(Br)ccc54)C(C)C3)c(F)c21	50 µg/mL	-	Huh7	replicon	20%
COC(=O)N[C@H](C(=O)N1CCC[C@H]1c1ncc(-c2ccc(-c3ccc(-c4cnc([C@@H]5CCCN5C(=O)[C@@H](NC(=O)OC)C(C)C)[nH]4)cc3)cc2)[nH]1)C(C)C	20 pM	1b	-	replicon	90%
COc1cc(Cc2cnc(/N=C3\C(=O)N(CN4CCN(c5cccc(C(F)(F)F)c5)CC4)c4ccc(Br)cc43)nc2N)cc(OC)c1OC	50 µg/mL	-	Huh7	replicon	2%
COC(=O)/C=C1\S/C(=N/N=C/c2ccccc2OCc2ccccc2)NC1=O	12.7 µM	1b Con1 (replicon)	Huh 5-2	luciferase / luminescence	82.8%
COc1cccc(-c2ccccc2NC(=O)C2CCN(Cc3ccccc3OC)CC2)c1	5 µM	JFH-1	Huh7	PCR	≥40%
CCn1cc(C(=O)O)c(=O)c2cc(F)c(N3CCN(CN4C(=O)/C(=N\c5ncc(Cc6cc(OC)c(OC)c(OC)c6)c(N)n5)c5cc(F)ccc54)CC3)cc21	50 µg/mL	-	Huh7	-	95%
COc1cc(Cc2cnc(/N=C3\C(=O)N(CN4CCOCC4)c4ccc(Br)cc43)nc2N)cc(OC)c1OC	50 µg/mL	-	Huh7	replicon	20%
Cc1cc(C)cc(Nc2nc3ccc(C)cc3s2)c1	5 µM	-	Huh7	luciferase	45%
COc1cc(Cc2cnc(/N=C3\C(=O)N(CN4CCN(c5ccccn5)CC4)c4ccc(Br)cc43)nc2N)cc(OC)c1OC	50 µg/mL	-	Huh7	replicon	16%
Cc1ccc2nc(Nc3ccc(OCc4ccccc4)cc3)sc2c1	20 µM	-	Huh7	luciferase	35%
Nc1ncnc2c1ncn2[C@@H]1C2C[C@@]2(CO)C(O)C1(O)CF	100 µM	-	Huh7	replicon	0%
C=CCn1cc(CN2CCC(C(=O)Nc3cccc(-c4cccc(Cl)c4)c3)CC2)c(C)n1	15 µM	JFH-1	Huh7	PCR	≥40%
Nc1ccn([C@@H]2O[C@H](CO)[C@@H](O)[C@H]2F)c(=O)n1	5 µM	-	Huh7	replicon	90%
Cc1ccc2nc(Nc3ccc([N+](=O)[O-])cc3)sc2c1	20 µM	-	Huh7	luciferase	38%
COC(=O)/C=C1\S/C(=N/N=C/C2CCCCC2)NC1=O	30.1 µM	1b Con1 (replicon)	Huh 5-2	luciferase / luminescence	62.6%
CCn1cc(C(=O)O)c(=O)c2c(F)c(N3CCN(CN4C(=O)/C(=N\c5ncc(Cc6cc(OC)c(OC)c(OC)c6)c(N)n5)c5cc(C)ccc54)C(C)C3)c(F)cc21	50 µg/mL	-	Huh7	-	92%
Nc1nc2c(cnn2[C@H](C=O)O[C@@H](C=O)CO)c(=O)[nH]1	50 µM	GT2a	Huh7.5	luciferase / reporter gene	38%
O=C1NC(=Nc2nnc(-c3cccc(F)c3)s2)SC1=Cc1cccc(F)c1	50 µM	GT1b	Huh7	luciferase	79%
COc1cc(Cc2cnc(/N=C3\C(=O)N(CN4CCN(c5c(F)cc6c(=O)c(C(=O)O)cn(C7CC7)c6c5OC)CC4C)c4ccc(Br)cc43)nc2N)cc(OC)c1OC	50 µg/mL	-	Huh7	replicon	20%
O=C(Nc1cccc(-c2cccc(F)c2)c1)C1CCN(Cc2ccc(O)cc2)CC1	5 µM	JFH-1	Huh7	PCR	≥40%
COc1cc(Cc2cnc(/N=C3\C(=O)N(CN4CCN(c5ccc6c(c5F)c(=O)c(C(=O)O)cn6C5CC5)CC4)c4ccc(C)cc43)nc2N)cc(OC)c1OC	50 µg/mL	-	Huh7	-	97%
CC1(O)C(O)[C@]2(CO)CC2[C@H]1n1cnc2c(N)ncnc21	100 µM	-	Huh7	replicon	0%
COc1cc(Cc2cnc(/N=C3\C(=O)N(CN4CCN(Cc5ccccc5)CC4)c4ccc(Br)cc43)nc2N)cc(OC)c1OC	50 µg/mL	-	Huh7	replicon	26%
Cc1ccc2nc(Nc3cccc(Cl)c3)sc2c1	20 µM	-	Huh7	luciferase	31%
N#Cc1c(SCc2ccncc2)sc2c(=O)[nH]c(=O)[nH]c12	50 µM	GT1b	Huh7	luciferase / reporter gene	38%
COc1cc(Cc2cnc(/N=C3\C(=O)N(CN4CCN(c5ccccc5)CC4)c4ccc(C)cc43)nc2N)cc(OC)c1OC	50 µg/mL	-	Huh7	-	91%
CC(=O)c1ccc(NC(=O)C2=c3nc(C)[nH]c(=O)c3=NC2)cc1	50 µM	GT1b	Huh7	luciferase / reporter gene	0%
COC(=O)/C=C1\S/C(=N/N=C/c2ccc(OC)cc2)NC1=O	31.7 µM	1b Con1 (replicon)	Huh 5-2	luciferase / luminescence	64.9%